Human monoclonal antibodies against the spike receptor-binding domain (heavy:light variable regions). IC50 against pseudoviruses bearing the spike of naturally observed variants; lower = stronger; >10 µg/ml means not reached at the top dose. No active / inactive call. The stated detection limit is 0.0005 µg/ml; values near or below 0.001 µg/ml lie at the floor of the assay.
B1: BD56-1281 (protein)
chain 1: EVQLVESGGGLVKPGGSLRLSCAASGFTFSSYDMYWVRQAPGKGLEWVSSITRSASYIYYADSLKGRFTISRDNAMNSLFLQMNSLKADDTAIYYCARGGSFLPYFDLWGRGSLVTVSS
chain 2: NFMLTQPHSVSESPGKTVTISCTGSSGSIANNYVQWYQQRPGSAPTNVIYEDNQRPSGVPERFSGSIDSSSNSASLTISGLKTEDEADYYCQSYDSKKSVIFGGGTKLTVL
B2: BD56-1285 (protein)
chain 1: QVQLVQSGTEVKKPGASVKVSCKASGYSFTSYGFSWVRQAPGQGLEWMGWISAYNGNTDYAQRLQGRVTMTTDTSTTTAYMELRSLRFDDTAVYYCARDFGEISGSENFDLWGQGTLVTVSS
chain 2: EIVLTQSPATLSLSPGERATLSCRASQSLSIYLAWFQQKPGQAPRLLIYHASNRATGIPARFSGSGSGTDFTLTISSLEPEDFAVYYCQQRSKWPSFGQGTRLEIK
B3: BD56-1287 (protein)
chain 1: QVQLQESGPGLVKPSQTLSLTCTVSGGSIRGGGYYWSWIRQPPGKGLQWIGYIFYSGTTYYNPSLQSRASISVDPSKNQFSLNLTSVTAADTAVYFCASSAYDGSPGGFEYWGQGTQVTVSS
chain 2: QSALTQPPSASGSPGQSVTISCIGLSSDVGGYKYVSWYQQHPGKAPKLIIYEVTKRPSGVPDRFSGSKSANTASLTVSGLRAEDEADYYCCSYAGNNNWVFGGGTKLTVL
B4: COV2-2308 (protein)
chain 1: EVQLLESGGGLIQPGGSLRLSCAASGFTFSNYAMSWVRQAPGKGLEWVSGIISSSGGATYNADSVRGRFTTSRDNSKNILYLQMNSLRGEDTAVYYCVKGLFDWFPLWGQGTMVTVSS
chain 2: DIVMTQSPATLSVSPGERAILSCRASQSVRSNLAWYQQKPGQAPRLLISGASTRATAIPARFSGSGSGTEFTLTITSLQSEDCAVYYCHQYNNWPQTFGQGTKVEIK
B5: BD56-1296 (protein)
chain 1: QVQLVQSGAEVKKPGASVKVSCKASGYTFTNYYIHWVRQAPGQGLAWMGMINPSGGTARYAQKFQGRVTMTRDTSTSAVYMELSSLTSEDTAIYYCARELVAPAAGYMDVWGKGTTVTVSS
chain 2: SYVLTQPPSVSVAPGKTASITCGGTDIGSKSVHWYQQKPGQAPVLVVYYDSDRPSGIPERFSGSNSGNTATLTISRVEAGDEADYYCQVWDSISDHFYVFGTGTKVTVL
B6: BD56-1300 (protein)
chain 1: EVQLVESGGGFIQPGGSLRLSCAASGFTFSTYDMLWVRQATGKGLEWVSTIGTAGDTYYPDSVKGRITISRENAKNSLYLQMNNLRAGDTAVYYCARMGETMVRGISRLYYYYYMDVWGKGTTVTVSS
chain 2: DIQMTQSPSSLSASVGDRVIITCRASQSISSYLNWYQQKPGKAPKLLIYAASSLQSGVPSRFSGSGSGTDFTLTISSLQPEDFATYYCQQSYISPMYTFGQGTKLEIK

target: SARS-CoV-2 Omicron BA.1 spike pseudovirus; test: pseudovirus neutralization IC50; higher = weaker neutralization
Protocol: (§1)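 Single-round VSV luciferase pseudovirus mixed with antibody dilutions for 1 h and put on Huh-7 cells for about a day; IC50 from the dose curve.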

| Binder | pseudovirus neutralization IC50 [µg/mL] |
| --- | --- |
| B1 | 0.462 |
| B2 | 0.265 |
| B3 | 0.166 |
| B4 | 2.6 |
| B5 | > 10 |
| B6 | > 10 |

target: SARS-CoV-2 Omicron BA.2 spike pseudovirus; test: as above
Protocol: as §1

| Binder | pseudovirus neutralization IC50 [µg/mL] |
| --- | --- |
| B1 | 0.011 |
| B2 | 0.169 |
| B3 | 0.504 |
| B4 | 3.98 |
| B5 | > 10 |
| B6 | > 10 |

target: SARS-CoV-2 Omicron BA.2.75 spike pseudovirus; test: as above
Protocol: as §1

| Binder | pseudovirus neutralization IC50 [µg/mL] |
| --- | --- |
| B1 | 0.0273 |
| B2 | 0.244 |
| B3 | > 10 |
| B4 | 0.0117 |
| B5 | > 10 |
| B6 | > 10 |

target: SARS-CoV-2 Omicron BA.5 spike pseudovirus; test: as above
Protocol: as §1

| Binder | pseudovirus neutralization IC50 [µg/mL] |
| --- | --- |
| B1 | 2.13 |
| B2 | > 10 |
| B3 | 0.371 |
| B4 | > 10 |
| B5 | > 10 |
| B6 | > 10 |

target: SARS-CoV-2 Omicron BQ.1.1 spike pseudovirus; test: as above
Protocol: as §1

| Binder | pseudovirus neutralization IC50 [µg/mL] |
| --- | --- |
| B1 | 2.75 |
| B2 | > 10 |
| B3 | > 10 |
| B4 | > 10 |
| B5 | > 10 |
| B6 | > 10 |

target: SARS-CoV-2 Omicron XBB spike pseudovirus; test: as above
Protocol: as §1

| Binder | pseudovirus neutralization IC50 [µg/mL] |
| --- | --- |
| B1 | 2.05 |
| B2 | > 10 |
| B3 | > 10 |
| B4 | > 10 |
| B5 | > 10 |
| B6 | > 10 |

target: SARS-CoV-2 early D614G spike pseudovirus; test: as above
Protocol: as §1

| Binder | pseudovirus neutralization IC50 [µg/mL] |
| --- | --- |
| B1 | 0.514 |
| B2 | 0.577 |
| B3 | 0.00161 |
| B4 | 0.0091 |
| B5 | > 10 |
| B6 | > 10 |

— the supplement of paper PMC9931576
